B1: CyA-[Nle6; Pra17; Glu28; hPhe29]JzTx-V(1-29) (peptide)
peptide: AYCQKWLWTCDSKRACCGGLRCKLWCRKEF
modifications: not checked
B2: CyA-[Nle6; Pra17; 5-BrW24]JzTx-V(1-29) (peptide)
peptide: B1 peptide with E29I, F30I
modifications: not checked
B3: Glu-[Pra1; Nle6; Glu11, 12, 28]JzTx-V(1-29) (peptide)
peptide: EGCQKWLWTCDEERACCEGLRCKLWCRKEI
modifications: not checked
B4: Pra-[Nle6; Chg23; Glu28]JzTx-V(1-29) (peptide)
peptide: GYCQKWLWTCDSKRACCEGLRCKGWCRKEI
modifications: not checked
B5: Glu-[Pra1; Nle6; Glu11, 14, 28]JzTx-V(1-29) (peptide)
peptide: B3 peptide with E13K, A15E
modifications: not checked
B6: CyA-[Glu1, 28; Nle6; Pra17; Cha29]JzTx-V(1-29) (peptide)
peptide: B1 peptide with Y2E, F30A
modifications: not checked
B7: CyA-[Nle6; Pra17; 5-MeW24; Glu28]JzTx-V(1-29) (peptide)
peptide: B1 peptide with F30I
modifications: not checked
B8: Pra-[Glu1, 14, 28; Nle6]JzTx-V(1-29) (peptide)
peptide: B4 peptide with Y2E, A15E, G24L
modifications: not checked
B9: CyA-[Nle6; Glu11; Pra17; 5-BrW24]JzTx-V(1-29) (peptide)
peptide: B1 peptide with S12E, E29I, F30I
modifications: not checked
B10: Glu-[Pra1; Nle6; Glu11, 28]JzTx-V(1-29) (peptide)
peptide: B3 peptide with E13K
modifications: not checked
B11: Glu-Pra-[Glu1, 11, 28; Nle6]JzTx-V(1-29) (peptide)
peptide: EGECQKWLWTCDEKRACCEGLRCKLWCRKEI
modifications: not checked
B12: [CyA1; Nle6; Glu11, 28; Pra17]JzTx-V(1-29) (peptide)
peptide: ACQKWLWTCDEKRACCGGLRCKLWCRKEI
modifications: not checked
B13: Pra-[Nle6; Glu12; Lys17]JzTx-V(1-29) (peptide)
peptide: GYCQKWLWTCDSERACCKGLRCKLWCRKII
modifications: not checked
B14: Glu-[Pra1; Nle6; Glu14, 28]JzTx-V(1-29) (peptide)
peptide: B3 peptide with E12S, E13K, A15E
modifications: not checked
B15: Pra-[Nle6; Glu11, 12, 28]JzTx-V(1-29) (peptide)
peptide: B3 peptide with E1G, G2Y
modifications: not checked
B16: Pra-[Nle6; Cha23; Glu28]JzTx-V(1-29) (peptide)
peptide: B4 peptide with G24A
modifications: not checked
B17: CyA-[Glu1, 11, 28; Nle6; Pra17; Cha29]JzTx-V(1-29) (peptide)
peptide: B1 peptide with Y2E, S12E, F30A
modifications: not checked
B18: [AzK1; Nle6; Glu20; Trp29]JzTx-V(1-29) (peptide)
peptide: KCQKWLWTCDSKRACCEGLECKLWCRKIW
modifications: not checked
B19: Pra-[Nle6; Ile23; Glu28]JzTx-V(1-29) (peptide)
peptide: B4 peptide with G24I
modifications: not checked
B20: CyA-[Nle6; Pra17; Glu28; Trp29]JzTx-V(1-29) (peptide)
peptide: B1 peptide with F30W
modifications: not checked
B21: CyA-[Nle6; Pra17; Glu28; Phe29]JzTx-V(1-29) (peptide)
peptide: B1 peptide
modifications: not checked

Where a chain is given by its changes, count along the chain named.

One test concerns the target human Nav1.4 voltage-gated sodium channel (human), P35499. In words: cell-based or functional assay.
The molecule B1 gave a Nav1.4/Nav1.7 of 93 and a PX hNav1.4 Tonic IC50 of 14.9 nM.
Take B2: the Nav1.4/Nav1.7 came out at 3 and the PX hNav1.4 Tonic IC50 came out at 3.6 nM.
On to B3, for which the Nav1.4/Nav1.7 is 323 and the PX hNav1.4 Tonic IC50 turned out to be 2150 nM.
In turn, B4 displayed a Nav1.4/Nav1.7 of 361 and a PX hNav1.4 Tonic IC50 of 177 nM.
The molecule B5 yielded a Nav1.4/Nav1.7 of 411 and a PX hNav1.4 Tonic IC50 of 1190 nM.
In the same order, the values of B6 are 117 and 37.6 nM.
Regarding B7, the Nav1.4/Nav1.7 came out at 172 and the PX hNav1.4 Tonic IC50 was determined as 89.8 nM.
Turning to B8, the Nav1.4/Nav1.7 is 494 and the PX hNav1.4 Tonic IC50 amounted to 670 nM.
In the same order, the values of B9 are 12 and 7.4 nM.
B10: the Nav1.4/Nav1.7 stood at 375 and the PX hNav1.4 Tonic IC50 is 547 nM.
B11 had a Nav1.4/Nav1.7 of 302 and a PX hNav1.4 Tonic IC50 of 1680 nM.
In the same order, the values of B12 are 159 and 457 nM.
In the same order, the values of B13 are 4 and 7.6 nM.
Molecule B14 showed a Nav1.4/Nav1.7 of 437 and a PX hNav1.4 Tonic IC50 of 246 nM.
The molecule B15 had a Nav1.4/Nav1.7 of 374 and a PX hNav1.4 Tonic IC50 of 1420 nM.
In the same order, the values of B16 are 73 and 117 nM.
In the same order, the values of B17 are 311 and 294 nM.
With B18, the Nav1.4/Nav1.7 was 449.
Turning to B19, the Nav1.4/Nav1.7 was 182 and the PX hNav1.4 Tonic IC50 amounted to 193 nM.
B20 gave a Nav1.4/Nav1.7 of 26 and a PX hNav1.4 Tonic IC50 of 64.6 nM.
With B21, the Nav1.4/Nav1.7 was determined as 66 and the PX hNav1.4 Tonic IC50 was found to be 72.1 nM.

For a further test, the target named is human Nav1.5 voltage-gated sodium channel (human), Q14524. In words: cell-based or functional assay.
B18 had a Nav1.5/Nav1.7 of 662.

For a further test, the target named is human Nav1.7 voltage-gated sodium channel (human), Q15858. Briefly: cell-based or functional assay.
Turning to B1, the PX hNav1.7 Tonic IC50 turned out to be 0.16 nM.
In turn, B2 had a PX hNav1.7 Tonic IC50 of 1.09 nM.
The same measure, in the same setting: next, B3: 6.66 nM; B4: 0.489 nM; B5: 2.91 nM.
In the case of B6, the PX hNav1.7 Tonic IC50 is 0.321 nM.
Consider B7, for which the PX hNav1.7 Tonic IC50 was determined as 0.52 nM.
Still for that read-out and setting: next, B8: 1.36 nM.
The same measure, in the same setting: next, B9: 0.64 nM.
On the same count and under the same terms, the same measure for B10: 1.46 nM.
As for B11, the PX hNav1.7 Tonic IC50 stood at 5.59 nM.
The molecule B12 returned a PX hNav1.7 Tonic IC50 of 2.87 nM.
Still for that read-out and setting: the same measure for B13: 1.87 nM; for B14: 0.563 nM; for B15: 3.8 nM.
Turning to B16, the PX hNav1.7 Tonic IC50 came to 1.61 nM.
Molecule B17 registered a PX hNav1.7 Tonic IC50 of 0.95 nM.
Regarding B19, the PX hNav1.7 Tonic IC50 was 1.06 nM.
The same measure, in the same setting: the same measure for B20: 2.51 nM; for B21: 1.09 nM.

The values above are taken from US20160024159A1, “Potent and selective inhibitors of Nav1.7” (published 2016).
